Measured values from several laboratories, pooled; numbers as filed in NIAID ChemDB.

Common to all: tests in culture; agent: Reovirus; read by: cytopathic effect; endpoint: EC50

ECn: concentration that inhibits the pathogen or its effect by n%. Conditions beyond the fields shown may differ between rows. Blank or dashed fields: not listed here.

SMILES,cell line,strain or isolate,value
Nc1cc(OCCOCP(=O)(O)O)nc(N)n1,-,TYPE 1,>190 µM
Nc1nccc2c1ncn2[C@@H]1O[C@H](CO)[C@@H](O)[C@H]1O,VERO,TYPE 1,10 µg/mL
Nc1ncnc2c1ncn2CCOCP(=O)(O)O,-,TYPE 1,>185 µM
Nc1nc2c(ncn2C[C@H]2CC[C@@H](CO)C2)c(=O)[nH]1,VERO,TYPE 1,>200 µg/mL
OCCOC([C@H](O)CO)n1cnc2cc(Cl)c(Cl)cc21,HeLa,TYPE 1,>200 µg/mL
C[C@H]1C[C@@H](n2cnc3c(N)ncnc32)[C@H](O)[C@@H]1O,VERO,TYPE 1,4 µg/mL
Nc1nccc2c1ncn2[C@@H]1C[C@H](CO)[C@@H](O)[C@H]1O,VERO,TYPE 1,2 µg/mL
Nc1nccc2c1ncn2[C@@H]1C[C@H](CO)[C@@H](O)[C@H]1O,VERO,TYPE 1,2 µg/mL
OC[C@H]1O[C@H](n2cnc3cc(Cl)c(Cl)cc32)[C@@H](O)[C@H]1O,HeLa,TYPE 1,>200 µg/mL
NC(=O)c1ccnc([C@@H]2O[C@H](CO)[C@@H](O)[C@H]2O)c1,VERO,TYPE 1,>400 µg/mL
Nc1nc(Cl)c2nnn(C[C@H]3CC[C@@H](CO)C3)c2n1,VERO,TYPE 1,>200 µg/mL
COC(C)c1cn([C@@H]2O[C@H](CO)[C@@H](O)[C@H]2O)c2ncnc(N)c12,VERO,TYPE 1,1 µg/mL
C[C@H](Cn1cnc2c(N)ncnc21)OCP(=O)(O)O,-,TYPE 1,>525 µM
Nc1ncnc2c1ncn2C[C@H](O)CO,VERO,TYPE 1,50 µg/mL
CC(C)[Si]1(C(C)C)OC[C@H]2O[C@@H](n3cnc4cc(Cl)c(Cl)cc43)[C@H](O)[C@H]2O[Si](C(C)C)(C(C)C)O1,HeLa,TYPE 1,>10 µg/mL
Nc1ncnc2c1ncn2C[C@H](O)CO,VERO,TYPE 1,2 µg/mL
OCCOC(CO)n1cnc2cc(Cl)c(Cl)cc21,HeLa,TYPE 1,>200 µg/mL
Nc1nc(Cl)c2ncn(C[C@H]3CC[C@@H](CO)C3)c2n1,VERO,TYPE 1,>40 µg/mL
Nc1nccc2c1ncn2[C@@H]1C[C@H](CO)[C@@H](O)[C@H]1O,VERO,TYPE 1,1 µg/mL
O=[N+]([O-])c1cc(Cl)c(Cl)cc1[N+](=O)[O-],HeLa,TYPE 1,>4 µg/mL
NC(=O)c1csc([C@@H]2O[C@H](CO)[C@@H](O)[C@H]2O)n1,VERO,TYPE 3/ABNEY,9 µg/mL
Nc1ncnc2c1ccn2[C@@H]1C[C@H](CO)[C@@H](O)[C@H]1O,VERO,TYPE 1,4 µg/mL
Nc1nccc2c1ncn2[C@@H]1C=C[C@@H](O)[C@H]1O,VERO,TYPE 1,2 µg/mL
Nc1ncnc2c1ncn2C[C@H](O)CO,VERO,TYPE 1,7 µg/mL